According to US20240298639A1 (priority 2021, published 2024):

Columns and labels:
Details in all cases: 2 mg/L
[1] = system: phenamacril-resistant scab pathogen, type-I myosin S217A mutant strain
[2] = system: phenamacril-resistant scab pathogen, type-I myosin F419A mutant strain
[3] = system: phenamacril-resistant scab pathogen, type-I myosin I581A mutant strain

Q: Which results are given for phenamacril?
A: Mycelial growth inhibition rate [1]: 1.2%; Mycelial growth inhibition rate [2]: 19%; Mycelial growth inhibition rate [3]: 33%
